Results of unrelated studies side by side (data: NIAID ChemDB).

Shared fields: enzyme or target tests; organism: HIV-1; protein: Integrase

a–b is a range or a potency band. Blank or dashed fields: not listed here. ICn: concentration for n% inhibition. Lines come from different laboratories, so protocols vary.

SMILES	strain or isolate	measure	method	conditions	result
COC(=O)CCCCC(=O)c1cc(C)c(OC)c(C(=O)OC)c1	-	IC50	3′ processing	-	500 µM
O=C(NCCCC(NC(=O)c1cc(O)c(O)c(O)c1)C(=O)O)c1cc(O)c(O)c(O)c1	-	IC50	3′ processing	-	0.39 µM
[N-]=[N+]=NC[C@H]1O[C@@H](n2cnc3c(NC(=O)Nc4ccccc4)ncnc32)[C@H](O)[C@@H]1CC(=O)O	NL4-3	IC50	strand transfer	-	>10 µM
CNC(=O)c1cc(F)ccc1CNC(=O)c1nc(N(C)S(C)(=O)=O)c2cccnc2c1O	-	IC50	strand transfer	-	<0.5 µM
Cn1nnc(CN2CCn3c(nc(C(=O)NCc4ccc(F)cc4)c(O)c3=O)C2(C)C)n1	-	IC50	ELISA	-	<10 µM
CC(C)[C@H](NC(=O)OCc1ccccc1)C(=O)N[C@@H](Cc1ccccc1)C(=O)C(F)(F)C(=O)N1CCOCC1	-	IC50	3′ processing	-	500 µM
N#CCC1CN(Cc2ccc(Cl)c(Cl)c2)C(=O)c2c(O)c(=O)ccn21	-	IC50	ELISA	-	0.01–0.1 µM
CC/C=C\C=C\CO[C@H]1O[C@@H](C)[C@H](O)[C@@H](O)[C@H]1O	-	IC50	strand transfer / absorbance	-	>100 µM
CC1(C)CN(Cc2ccc(Cl)c(Cl)c2)C(=O)c2c(O)c(=O)ccn21	-	IC50	ELISA	-	0.01–0.1 µM
O=C(O)C(=O)/C=C(\O)c1cn(Cc2ccc(F)cc2)c2ccc(OCc3ccc(F)cc3)cc2c1=O	-	IC50	3′ processing	-	3 µM
CC1(C)CC(=O)c2c(nc(-c3coc4cc(OCc5ccccc5F)ccc4c3=O)n2O)C1	-	IC20	3′ processing / radiometric	-	180 µM
Cc1nc2c(ccc3c(C)c(C)c(C)nc32)c(C)c1C	-	IC50	3′ processing	-	>100 µM
N#Cc1ccccc1-c1ccc(CN2C(=O)C(=O)c3ccccc32)cc1	-	IC50	strand transfer	-	>1000 µM
O=C(/C=C/c1ccc(O)c(O)c1)O[C@H]1[C@H](O)[C@@H](O)[C@H](Oc2cc(O)c3c(=O)cc(-c4ccc(O)cc4)oc3c2)O[C@@H]1C(=O)O	-	IC50	-	-	7.2 µg/mL
COC(=O)[C@H](CCCCNC(=O)/C=C/c1ccc(O)c(O)c1)NC(=O)/C=C/c1ccc(O)c(O)c1	-	IC50	3′ processing	-	0.89 µM
c1cnc2c(CSc3nc4ccccc4s3)cccc2c1	-	IC50	3′ processing	-	>1000 µM
CC(C)(C)[C@H](NC(=O)OCc1ccccc1)C(=O)N[C@@H](Cc1ccc(OCc2ccccc2)cc1)C(=O)C(F)(F)C(=O)NCc1ccccc1	-	IC50	3′ processing	-	21 µM
CC/C=C\CCO[C@H]1O[C@@H](C)[C@H](O)[C@@H](O)[C@H]1O	-	IC50	strand transfer / absorbance	-	21 µM
CN1Cn2c(nc(C(=O)NCc3ccc(F)cc3S(C)(=O)=O)c(O)c2=O)C1(C)C	-	IC50	ELISA	-	<10 µM
O=[N+]([O-])c1ccc(CS(=O)(=O)c2nc3ccccc3s2)cc1	-	IC50	3′ processing	-	>1000 µM
CCOC(=O)C[C@H]1[C@@H](O[Si](C)(C)C(C)(C)C)[C@H](n2cnc3c(NC(=O)Nc4ccccc4)ncnc32)O[C@@H]1CNC(=O)NC	NL4-3	IC50	3′ processing	-	>10 µM
O=C(/C=C/c1ccc(O)c2c1[C@H](C(=O)O[C@H](Cc1ccc(O)c(O)c1)C(=O)O)[C@@H](c1ccc(O)c(O)c1)O2)O[C@H](Cc1ccc(O)c(O)c1)C(=O)O	-	IC50	strand transfer	-	0.37 µM
COc1ccc(CN2CCn3ccc(=O)c(O)c3C2=O)cc1Cl	-	IC50	ELISA	-	0.01–0.1 µM
COc1ccc(C2=C3c4cc(OC)c(OC)cc4C=CN3C3C(=O)Oc4cc(O)c(OC)cc4C23)cc1O	-	IC50	-	-	>1600 µM
CC1(C)NC(=O)n2c1nc(C(=O)NCc1ccc(F)cc1)c(O)c2=O	-	IC50	ELISA	-	<10 µM
CN(C)CCCNC(=O)c1ccc2nc(-c3ccc4nc(-c5ccc(OCCCCCCCOc6ccc(-c7nc8ccc(-c9nc%10ccc(C(=O)NCCCN(C)C)cc%10[nH]9)cc8[nH]7)cc6)cc5)[nH]c4c3)[nH]c2c1	-	IC50	strand transfer	-	0.044 µM
Cc1cccc(CNC(=O)c2nc3n(c(=O)c2O)CC2(F)CCC3(NC(=O)C(=O)C(C)C)CC2)c1	NL4-3	Ki	binding	pseudotyped	0.000003 µM
Cn1cc(NC(=O)c2cc(NC(=O)c3cc(NC=O)cn3C)cn2C)cc1C(=O)NCCC(=N)N	-	IC50	3′ processing	-	3.5 µM
O=S(=O)(Nc1ccccc1C(F)(F)F)c1cccc2cnccc12	-	IC50	3′ processing	-	1000 µM
CCOC(=O)c1nc(NC(=O)c2nc(NC(=O)c3nc(NC(=O)CCCNC(=O)c4nc(NC(=O)c5nc(NC(=O)c6nc(NC(=O)CCCN)cn6C)cn5C)cn4C)cn3C)cn2C)cn1C	-	IC50	3′ processing	-	20 µM
Cc1cc(=O)n(-c2cccc(Cl)c2)n1C(=O)c1ccco1	-	IC50	strand transfer	-	>1000 µM
COC(=O)CCCC=C(c1ccc(OC)c(Cl)c1)c1ccc(OC)c(Cl)c1	-	IC50	3′ processing	-	23 µM
O=c1nc(NCc2ccc(-c3ccccn3)s2)c2cccnc2n1O	-	IC50	strand transfer	-	1.778 µM
O=C(NCCC(NC(=O)c1ccc(O)c(O)c1)C(=O)O)c1ccc(O)c(O)c1	-	IC50	3′ processing	-	>10 µM
CCOC(=O)c1c(C)nc(-c2coc3cc(OCc4cccc(F)c4)ccc3c2=O)n1O	-	IC50	3′ processing / radiometric	-	>1000 µM
COc1ccnc2[nH]cc(C(=O)C(=O)N3CCN(C(=O)c4ccccc4)C[C@H]3C)c12	-	IC50	-	-	>500 µM
CC/C=C\CCO[C@@H]1O[C@H](CO)[C@@H](O)[C@H](O)[C@H]1O	-	IC50	strand transfer / absorbance	-	>100 µM
Cc1cc(C(=O)N(C)C23CCC(F)(CC2)Cn2c3nc(C(=O)NCc3ccc(F)c(C)c3)c(O)c2=O)no1	NL4-3	Ki	binding	pseudotyped	0.000002 µM
O=C(/C=C/c1ccc(O)c(O)c1)NCCCC(NC(=O)/C=C/c1ccc(O)c(O)c1)C(=O)O	-	IC50	3′ processing	-	2.9 µM
Cn1cc(C(=O)O)c(=O)c2cc(N)c(N3CCN(c4ccccn4)CC3)cc21	-	IC50	-	-	60 µM
CC1(C)c2nc(C(=O)NCc3ccc(F)cc3)c(O)c(=O)n2CCN1Cc1nnco1	-	IC50	ELISA	-	<10 µM
O=C(/C=C(\O)C(=O)O)CC(=O)c1ccccc1	-	IC50	strand transfer	-	34 µM
CC(=O)OC[C@@H]1CCC(=O)N1c1cc(F)ccc1CNC(=O)c1nc2n(c(=O)c1O)CCOC2(C)C	-	IC50	strand transfer	-	0.02–0.1 µM
CCS(=O)(=O)N(C)c1nc(C(=O)NCc2ccc(F)cc2C(=O)NC)c(O)c2ncccc12	-	IC50	strand transfer	-	<0.5 µM
C=C(C=O)[C@@H]1C[C@@]2(C)C(=CC1=O)[C@H](OC(=O)/C(C)=C\C(C)CCCC)CC[C@@H]2C(=O)O	-	IC50	strand transfer	-	10 µM
CNC(=O)c1cn2ccn(Cc3ccc(F)c(Cl)c3)c(=O)c2c(O)c1=O	-	IC50	ELISA	-	<0.01 µM
O=C1C(=O)N(Cc2ccc(Br)cc2)c2ccccc21	-	IC50	3′ processing	-	900 µM
CC(C)(C)c1cc(=O)c(O)c2n1CCN(Cc1ccc(Cl)c(Cl)c1)C2=O	-	IC50	ELISA	-	0.01–0.1 µM
O=S(=O)(c1cccc2cnccc12)n1cncn1	-	IC50	strand transfer	-	>1000 µM
C=CCn1c(=O)c(C(=O)Nc2ccccc2OC)c(O)c2ccccc21	-	IC50	3′ processing	-	>100 µM
CN(C)C(=O)C(=O)N1CCn2c(nc(C(=O)NCc3ccc(F)cc3)c(O)c2=O)C(N(C)C(=O)C(=O)N(C)C)C1	-	IC50	ELISA	-	<10 µM
O=C(NCc1ccc(O)c(O)c1)c1ccc2ccc(C(=O)O)c(O)c2n1	-	IC50	-	-	<50 µM
Cc1c(NC(=O)c2ccco2)c(=O)n(-c2ccccc2)n1C	-	IC50	strand transfer	-	>1000 µM
O=c1c(-c2cncs2)cn2ccn(Cc3cccc(Cl)c3)c(=O)c2c1O	-	IC50	ELISA	-	<0.01 µM
CN(C)C(=O)c1cc(F)ccc1CNC(=O)c1nc(N(C)S(C)(=O)=O)c2cccnc2c1O	-	IC50	strand transfer	-	<0.5 µM
CCOC(=O)c1nc(NC(=O)c2nc(NC(=O)c3cc(NC(=O)c4cc(NC(=O)CCCN)cn4C)cn3C)cn2C)cn1C	-	IC50	3′ processing	-	4.2 µM
O=C(NCc1ccccc1)c1cn2c(c(O)c1=O)C(=O)N(Cc1ccc(F)cc1)CC2	-	IC50	ELISA	-	0.01–0.1 µM
Cc1cnc2c(ccc3c(C)c(C)c(C)nc32)c1C	-	IC50	3′ processing	-	>100 µM
COC(=O)c1cc(NC(=O)c2nc(NC(=O)c3cc(NC(=O)c4cc(NC(=O)CCCNC(=O)c5nc(NC(=O)c6cc(NC(=O)c7cc(NC(=O)c8nc(NC(=O)CCCN)cn8C)cn7C)cn6C)cn5C)cn4C)cn3C)cn2C)cn1C	-	IC50	3′ processing	-	30 µM
CCC(=O)c1cc(=O)c(O)c2n1CCN(Cc1ccc(Cl)c(Cl)c1)C2=O	-	IC50	ELISA	-	<0.01 µM
CN(C)C(=O)C(=O)N(C)C12CCC(CO)(CC1)Cn1c2nc(C(=O)NCc2ccc(F)cc2)c(O)c1=O	NL4-3	Ki	binding	pseudotyped	0.0000028 µM

Repeating the first 5 entries:

SMILES,strain or isolate,measure,method,conditions,result
COC(=O)CCCCC(=O)c1cc(C)c(OC)c(C(=O)OC)c1,-,IC50,3′ processing,-,500 µM
O=C(NCCCC(NC(=O)c1cc(O)c(O)c(O)c1)C(=O)O)c1cc(O)c(O)c(O)c1,-,IC50,3′ processing,-,0.39 µM
[N-]=[N+]=NC[C@H]1O[C@@H](n2cnc3c(NC(=O)Nc4ccccc4)ncnc32)[C@H](O)[C@@H]1CC(=O)O,NL4-3,IC50,strand transfer,-,>10 µM
CNC(=O)c1cc(F)ccc1CNC(=O)c1nc(N(C)S(C)(=O)=O)c2cccnc2c1O,-,IC50,strand transfer,-,<0.5 µM
Cn1nnc(CN2CCn3c(nc(C(=O)NCc4ccc(F)cc4)c(O)c3=O)C2(C)C)n1,-,IC50,ELISA,-,<10 µM